Molecular target: RTA (Ricinus communis, UniProt P02879)
Test: Adenine-luciferase assay of RTA stem-loop catalysis at neutral pH, with or without ribosomes
Conditions: 60S or 80S ribosomes present

Substance: 5′-CGCGCGdAGAGCGCG-3′
- stem-loop catalysis by RTA in the presence of ribosomes: only adenine released from ribosome depurination was observed

From patent publication US20110136106A1, “METHODS FOR DETECTING RICIN AND RELATED COMPOUNDS AND USES THEREOF” (published 2011)
